Results of unrelated studies side by side (data: NIAID ChemDB).

All rows: growth or infection tests; species: HIV-1

Blank or dashed fields: not listed here. Conditions beyond the fields shown may differ between rows. ECn: concentration that inhibits the pathogen or its effect by n%. a–b is a range or a potency band.

| compound | strain or isolate | cell line | read-out | changes | read by | result |
|---|---|---|---|---|---|---|
| CCOCn1c(Sc2ccccc2)c(C(C)C)c(=O)[nH]c1=O | IIIB | CEM | EC50 | RT-Y181I | syncytia | >10 µM |
| C[C@H]1CN(C(=O)Cn2ccn3c(=O)c(O)c(-c4ncc(Cc5ccc(F)c(Cl)c5)s4)nc23)C[C@H](C)O1 | - | HEK 293 | EC50 | N155H/E92Q | luciferase | 0.1–1 µM |
| CCc1c(Cc2ccccc2)n(COCC2CC2)c(=O)[nH]c1=O | N119 | MT-4 | EC50 | Y181C | MTT | >100 µM |
| Cc1ccnc2c1NC(=O)c1cccnc1N2C1CC1 | - | MT-4 | EC50 | F227L + V106A | MTT | >2.141 µM |
| Cc1cc(CN2CCn3c(nc(C(=O)NCc4ccc(F)cc4)c(O)c3=O)C2(C)C)on1 | - | MT-4 | EC50 | - | p24 | <1 µM |
| CCc1c(Cc2cc(C)cc(C)c2)n(COCCO)c(=O)[nH]c1=O | IIIB | CEM | EC50 | RT-Y181C | syncytia | 1.3 µM |
| COCc1nc(Nc2ccc(C#N)cc2)nc(Nc2c(C)cc(/C=C/C#N)cc2C)c1C(=O)NCc1cccnc1 | MDR | MT4 CMV-EGFP | EC50 | - | - | 0.0851 µM |
| Nc1ccn([C@H]2OC[C@@H](CO)[C@H]2O)c(=O)n1 | - | MT-4 | EC50 | - | - | >100 µM |
| CN(CC1c2nc(C(=O)NCc3ccc(F)cc3)c(O)c(=O)n2CCN1C)C(=O)c1cccc[n+]1[O-] | - | MT-4 | EC95 | - | p24 | 1–10 µM |
| COCc1nc(Nc2ccc(C#N)cc2)nc(Nc2c(C)cc(/C=C/C#N)cc2C)c1C(=O)N1CCCC(C(N)=O)C1 | L1001+K103N | MT4 CMV-EGFP | EC50 | - | - | 0.603 µM |
| CC(C)c1c(Sc2ccccc2)n(COCc2ccccc2)c(=S)[nH]c1=O | IIIB | CEM | EC50 | RT-E138K | syncytia | 0.05 µM |
| COCc1nc(Nc2ccc(C#N)cc2)nc(Nc2c(C)cc(/C=C/C#N)cc2C)c1C(=O)NCCc1ccc(S(N)(=O)=O)cc1 | K103N+Y101C | MT4 CMV-EGFP | EC50 | - | - | 0.0724 µM |
| CCOCn1c(Cc2ccccc2)c(C(C)C)c(=O)[nH]c1=O | N119 | MT-4 | EC50 | Y181C | MTT | >20 µM |
| COc1ccnc2[nH]cc(C(=O)C(=O)N3C4CCC3CN(C(=O)c3ccccc3)C4)c12 | QH0692 | TZM-bl | EC99 | - | luciferase | 133 µM |
| O=C1Nc2ccc(Cl)cc2[C@@](C#CC2CC2)(C(F)(F)F)O1 | EFVR | MT-4 | EC50 | K103R/V179D/P225H | MTT | 14 µM |
| CCc1c(Cc2cc(Cl)cc(Cl)c2)n(COCC=C(C)C)c(=O)[nH]c1=O | NNRTI-resistant (RT Y181C) N119 | MT-4 | EC50 | RT-Y181C | cytopathic effect / MTT | >10 µM |
| CCc1c(Sc2cc(C)cc(C)c2)n(COCc2ccccc2)c(=O)[nH]c1=O | IIIB | CEM | EC50 | - | syncytia | 0.001 µM |
| C[C@H]1CN(C(=O)Cn2ccn3c(=O)c(O)c(-c4ncc(Cc5ccc(F)cc5)s4)nc23)C[C@H](C)O1 | - | HEK 293 | EC50 | N155H/E92Q | luciferase | 0.1–1 µM |
| CCCCCCCCNCC(O)CCCCCCCCCn1c(=O)c2c(ncn2C)n(C)c1=O | Clinical isolate | PBL | EC50 | - | p24 | 1 µM |
| C[C@H]1CN(C(=O)Cn2ccn3c(=O)c(O)c(-c4ncc(Cc5ccc(Cl)c(Cl)c5)s4)nc23)C[C@H](C)O1 | - | HEK 293 | EC50 | - | luciferase | 0.001–0.1 µM |
| C=CCOCn1c(Cc2cc(Cl)cc(Cl)c2)c(CC)c(=O)[nH]c1=O | IIIB | MT-4 | EC50 | - | cytopathic effect / MTT | 0.03 µM |
| C=CCOCn1c(Cc2cccc(C(F)(F)F)c2)c(C(C)C)c(=O)[nH]c1=O | A17 | MT-4 | EC50 | K103N + Y181C | MTT | 24 µM |
| CCc1c(Cc2ccc(OC)c(OC)c2)n(COCCc2ccccc2)c(=O)[nH]c1=O | EFVR | MT-4 | EC50 | K103R/V179D/P225H | MTT | >73 µM |
| CCOCn1c(Sc2ccccc2)c(CC)c(=O)[nH]c1=S | IIIB TIBO R82913-resistant (RT K103N) | CEM | EC50 | RT-K103N | syncytia | 1.1 µM |
| CCc1c(Cc2ccccc2)n(COCCCc2ccccc2)c(=O)[nH]c1=O | IIIB | MT-4 | EC50 | - | MTT | 0.2 µM |
| C=CCOCn1c(Cc2cccc(F)c2)c(CC)c(=O)[nH]c1=O | - | MT-4 | EC50 | - | MTT | 0.03 µM |
| CCOCn1c(Sc2ccccc2)c(CC)c(=O)[nH]c1=O | IIIB TIBO R82913-resistant (RT K103N) | CEM | EC50 | RT-K103N | syncytia | 1.54 µM |
| C[C@H]1CN(C(=O)Cn2cc(N3CCCS3(=O)=O)n3c(=O)c(O)c(-c4ncc(Cc5ccc(F)cc5)s4)nc23)C[C@H](C)O1 | - | HEK 293 | EC50 | QHGS | luciferase | 0.5–1 µM |
| Cc1cc(C)cc(Sc2c(C(C)C)c(=O)[nH]c(=S)n2COCCO)c1 | IIIB | CEM | EC50 | RT-Y181I | syncytia | 10 µM |
| CN1CCN(C(=O)C(=O)N(C)C2COCCn3c2nc(C(=O)NCc2ccc(F)cc2)c(O)c3=O)CC1 | - | MT-4 | EC95 | - | p24 | <1 µM |
| C[C@@H]1CN(C(=O)Cn2cc(N3CCCS3(=O)=O)n3c(=O)c(O)c(C(=O)NCc4ccc(F)cc4S(=O)(=O)N(C)C)nc23)C[C@@H](C)O1 | - | HEK 293 | EC50 | QHGS | luciferase | <0.5 µM |
| CCc1c(Cc2ccc(OC)c(OC)c2)n(COCC2CC2)c(=O)[nH]c1=O | N119 | MT-4 | EC50 | Y181C | MTT | >100 µM |
| C[C@@H]1CCO[C@H]2Cn3cc(C(=O)NCc4ccc(F)cc4F)c(=O)c(O)c3C(=O)N12 | NL4-3 | CBMC | EC50 | - | RT activity | 0.0011 µM |
| CCc1c(Cc2cc(Cl)cc(Cl)c2)n(COC/C=C/c2ccccc2)c(=O)[nH]c1=O | IIIB | MT-4 | EC50 | - | cytopathic effect / MTT | 0.04 µM |
| C#CCOCn1c(Cc2cc(F)ccc2F)c(CC)c(=O)[nH]c1=O | A17 | MT-4 | EC50 | K103N + Y181C | MTT | 53 µM |
| Cc1cc(CN2CCn3c(nc(C(=O)NCc4ccc(F)cc4)c(O)c3=O)C2(C)C)no1 | - | MT-4 | EC95 | - | p24 | <1 µM |
| CN1CCN(C(=O)Cn2ccn3c(=O)c(O)c(-c4ncc(Cc5ccc(F)cc5)s4)nc23)CC1 | - | HEK 293 | EC50 | - | luciferase | 0.1–1 µM |
| CC1(C)c2nc(C(=O)NCc3ccc(F)cc3)c(O)c(=O)n2CCN1CC(=O)NCc1ccncc1 | - | MT-4 | EC50 | - | p24 | <1 µM |
| C=C(C)COCn1c(Cc2c(F)c(F)cc(F)c2F)c(CC)c(=O)[nH]c1=O | EFV-resistant (K103R V179D P225H) | MT-4 | EC50 | - | MTT | >38 µM |
| COCc1nc(Nc2ccc(C#N)cc2)nc(Nc2c(C)cc(/C=C/C#N)cc2C)c1C(=O)N1CCC(O)CC1 | IIIB | MT4 CMV-EGFP | EC50 | - | - | 0.00617 µM |
| CC1CC(C)CN(C(=O)Cn2cc(N3CCCS3(=O)=O)n3c(=O)c(O)c(C(=O)NCc4ccc(Cl)c(Cl)c4)nc23)C1 | - | HEK 293 | EC50 | QHGS | luciferase | 0.5–1 µM |
| C=C(C)COCn1c(Cc2cc(Cl)cc(Cl)c2)c(CC)c(=O)[nH]c1=O | IIIB | MT-4 | EC50 | - | cytopathic effect / MTT | 0.12 µM |
| CCc1c(Cc2ccc(C)cc2)n(COCC2CC2)c(=O)[nH]c1=O | IIIB | MT-4 | EC50 | - | MTT | 37 µM |
| O=C(NCc1ccc(F)cc1)c1nc2n(c(=O)c1O)CCN(Cc1cn[nH]n1)C2 | - | MT-4 | EC50 | - | p24 | <50 µM |
| CCOCn1c(Sc2ccccc2)c(C(C)C)c(=O)[nH]c1=S | IIIB | CEM | EC50 | RT-Y181C | syncytia | 0.89 µM |
| COCc1nc(Nc2ccc(C#N)cc2)nc(Nc2c(C)cc(/C=C/C#N)cc2C)c1C(=O)NCc1cccs1 | K103N+Y101C | MT4 CMV-EGFP | EC50 | - | - | 0.0912 µM |
| Nc1ccn([C@@H]2O[C@H](CO)C=C2F)c(=O)n1 | BRU | PBMC | EC50 | - | RT activity | <8 µM |
| COCc1nc(Nc2ccc(C#N)cc2)nc(Nc2c(C)cc(/C=C/C#N)cc2C)c1C(=O)NCC1CCCO1 | IIIB | MT4 CMV-EGFP | EC50 | - | - | 0.00525 µM |
| COc1ccnc2[nH]cc(C(=O)C(=O)N3C4CC3CN(C(=O)c3ccccc3)C4)c12 | QH0692 | TZM-bl | EC99 | - | luciferase | >>250 µM |
| COCc1nc(Nc2ccc(C#N)cc2)nc(Nc2c(C)cc(/C=C/C#N)cc2C)c1C(=O)NCCNC(C)=O | L1001+K103N | MT4 CMV-EGFP | EC50 | - | - | 0.038 µM |
| CC(C)c1c(Sc2ccccc2)n(COCCO)c(=S)[nH]c1=O | IIIB | CEM | EC50 | - | syncytia | 0.2 µM |

Again, the opening 5 rows:

CCOCn1c(Sc2ccccc2)c(C(C)C)c(=O)[nH]c1=O ; strain or isolate: IIIB ; cell line: CEM ; read-out: EC50 ; changes: RT-Y181I ; read by: syncytia ; result: >10 µM
C[C@H]1CN(C(=O)Cn2ccn3c(=O)c(O)c(-c4ncc(Cc5ccc(F)c(Cl)c5)s4)nc23)C[C@H](C)O1 ; cell line: HEK 293 ; read-out: EC50 ; changes: N155H/E92Q ; read by: luciferase ; result: 0.1–1 µM
CCc1c(Cc2ccccc2)n(COCC2CC2)c(=O)[nH]c1=O ; strain or isolate: N119 ; cell line: MT-4 ; read-out: EC50 ; changes: Y181C ; read by: MTT ; result: >100 µM
Cc1ccnc2c1NC(=O)c1cccnc1N2C1CC1 ; cell line: MT-4 ; read-out: EC50 ; changes: F227L + V106A ; read by: MTT ; result: >2.141 µM
Cc1cc(CN2CCn3c(nc(C(=O)NCc4ccc(F)cc4)c(O)c3=O)C2(C)C)on1 ; cell line: MT-4 ; read-out: EC50 ; read by: p24 ; result: <1 µM